Results on 1 compound are retold here after patent US12296017B2 (TAMBO, INC., priority 2017, dated 2025).

A short description of this series: In vivo catch and release of TCO-rhodamine at implanted HMT in mice.

As to `CN(C)c1ccc2c(-c3ccc(C(=O)NCCNC(=O)OC4/C=C/CCCCC4)cc3C(=O)[O-])c3ccc(=[N+](C)C)cc-3oc2c1` (centres unmarked) [Rh-R-TCO], the “fluorescence around the site of HMT implantation” value (5-10 minutes after 100 nmoles by tail vein, mouse with 2.5% HMT) was “large increase in fluorescence”. Besides, under “after each dose”, the “decay of fluorescence signal (release)” value is recorded as “decreases within two hours to background levels”.
